# Results published in US9205128B2, “Method for inhibiting HIV replication in mammal and human cells” (priority 2010, dated 2015).
# Sequences of proteins named here, by UniProt entry; tags and fusion partners are left off.
# UniProt P08670, whole entry: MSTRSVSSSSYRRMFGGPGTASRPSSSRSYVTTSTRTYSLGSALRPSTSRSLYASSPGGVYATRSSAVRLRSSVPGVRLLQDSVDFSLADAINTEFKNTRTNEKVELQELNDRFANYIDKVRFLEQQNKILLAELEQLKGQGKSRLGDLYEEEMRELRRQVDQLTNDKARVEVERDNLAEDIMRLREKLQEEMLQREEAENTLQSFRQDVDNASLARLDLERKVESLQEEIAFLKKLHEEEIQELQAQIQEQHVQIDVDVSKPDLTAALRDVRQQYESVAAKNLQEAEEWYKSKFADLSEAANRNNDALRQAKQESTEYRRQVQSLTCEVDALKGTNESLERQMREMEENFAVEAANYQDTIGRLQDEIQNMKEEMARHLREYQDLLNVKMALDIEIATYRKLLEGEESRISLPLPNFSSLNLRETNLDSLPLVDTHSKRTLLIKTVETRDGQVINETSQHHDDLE
# Tests used:
# HIV-1 = details: PBMCs of infected individuals treated ex vivo; 15d-PGJ2 at 5 μM; vs untreated cells
# HIV-2 CBL-20 strain = assay: HIV-2 replication in pre-stimulated PBMCs, p24; format: cell-based; details: 7 days
# Procedure: PBMCs were isolated from whole blood of healthy individuals by using Ficoll density gradients. […] Cells were subsequently maintained in PHA-free medium and seeded at 150 000 cells per well in 96-well plates. After 24 h, peptides were added at different concentrations and the cultures were infected with the CBL-20 HIV-2 strain. The cultures were kept for 7 days, being changed every 3 days the medium and the peptides added. Cultures were harvested and supernatants collected to evaluate the presence of the p24 viral protein.
# vimentin = target: T1, vimentin (Homo sapiens, UniProt P08670); assay: Western blot of vimentin in MT4 cells incubated with peptides; format: cell-based; details: 50 μM peptide, 24 h
# T1 construct: these proteins are endogenous cellular proteins rather than viral; endogenous in cells; host or cells: MT4 cell line (untransduced, shRNA-transduced MT4vim(s), or peptide-treated)
# Procedure: The MT4 cell line was incubated at 50 μM of each peptide for 24 h. The vimentin protein was detected by the western blot technique. Cellular extracts were resuspended in 1% sodium dodecyl sulphate (SDS) and applied in a 10% polyacrylamide gel, being further transferred to a Hybond-P […] membrane. For immunoidentification purposes, anti-vimentin and anti-β actin (as control) antibodies were used. An anti-mouse IgG antibody-peroxidase conjugate was used as secondary antibody. The activity of the peroxidase enzyme was visualized by using diaminobenzidine in the presence of hydrogen peroxide and PBS.
SMILES,% of HIV-1 inhibition (HIV-1),HIV-2 replication (HIV-2 CBL-20 strain),vimentin band intensity (vimentin)
CC[C@H](C)[C@H](NC(=O)[C@H](Cc1ccc(O)cc1)NC(=O)[C@H](CC(N)=O)NC(=O)[C@H](C)NC(=O)[C@H](Cc1ccccc1)NC(=O)[C@H](CCCNC(=N)N)NC(=O)[C@H](CC(=O)O)NC(=O)[C@H](CC(N)=O)NC(=O)[C@H](CC(C)C)NC(=O)[C@@H](N)CCC(=O)O)C(=O)N[C@@H](CC(=O)O)C(=O)N[C@@H](CCCCN)C(=O)N[C@H](C(=O)N[C@@H](CCCNC(=N)N)C(=O)N[C@@H](Cc1ccccc1)C(=O)N[C@@H](CC(C)C)C(=O)N[C@@H](CCC(=O)O)C(=O)N[C@@H](CCC(N)=O)C(=O)N[C@@H](CCC(N)=O)C(=O)N[C@@H](CC(N)=O)C(=O)O)C(C)C [Peptide 4],84.9%,inhibited HIV-2 replication in a dose-dependent manner,decreased intensity
CC[C@H](C)[C@H](NC(=O)[C@H](Cc1ccc(O)cc1)NC(=O)[C@H](CC(N)=O)NC(=O)[C@H](C)NC(=O)[C@@H](N)Cc1ccccc1)C(=O)N[C@@H](CC(=O)O)C(=O)N[C@@H](CCCCN)C(=O)N[C@H](C(=O)N[C@@H](CCCNC(=N)N)C(=O)N[C@@H](Cc1ccccc1)C(=O)N[C@@H](CC(C)C)C(=O)N[C@@H](CCC(=O)O)C(=O)N[C@@H](CCC(N)=O)C(=O)N[C@@H](CCC(N)=O)C(=O)N[C@@H](CC(N)=O)C(=O)N[C@@H](CCCCN)C(=O)N[C@H](C(=O)N[C@@H](CC(C)C)C(=O)N[C@@H](CC(C)C)C(=O)N[C@@H](C)C(=O)O)[C@@H](C)CC)C(C)C [Peptide 5],82.1%,inhibited HIV-2 replication in a dose-dependent manner,decreased intensity
CC[C@H](C)[C@H](NC(=O)[C@H](CCCCN)NC(=O)[C@H](CC(N)=O)NC(=O)[C@H](CCC(N)=O)NC(=O)[C@H](CCC(N)=O)NC(=O)[C@H](CCC(=O)O)NC(=O)[C@H](CC(C)C)NC(=O)[C@H](Cc1ccccc1)NC(=O)[C@H](CCCNC(=N)N)NC(=O)[C@@H](NC(=O)[C@H](CCCCN)NC(=O)[C@@H](N)CC(=O)O)C(C)C)C(=O)N[C@@H](CC(C)C)C(=O)N[C@@H](CC(C)C)C(=O)N[C@@H](C)C(=O)N[C@@H](CCC(=O)O)C(=O)N[C@@H](CC(C)C)C(=O)N[C@@H](CCC(=O)O)C(=O)N[C@@H](CCC(N)=O)C(=O)N[C@@H](CC(C)C)C(=O)O [Peptide 6],80.5%,inhibited HIV-2 replication in a dose-dependent manner,–
